# Share of PSTVd loop 15 variants by leaf site

Values reported by Wu et al. 2024 (doi:10.1371/journal.ppat.1012142).

The pool varies loop 15 of the PSTVd intermediate strain in the pattern GGAAACCGNNNNNNC; wild type is GGAAACCGCUACUAC (upper and lower strand joined, each 5' to 3', the first 7 letters being the upper strand, closing pairs included).

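Three N. benthamiana plants were inoculated with the whole mutant pool. Samples came from the inoculated region at 5 days, the leaf margin at 10 and upper systemic leaves at 12.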

Values are reads per thousand in the sample; higher means more abundant, 0 means not found.
Each value is the mean of three plants.
"Pool" is the share in the plasmid pool used as inoculum, on the same scale.
The inoculated region was read from the minus strand, the other sites from the plus strand.
IR is the inoculated region, LM the leaf margin, Sys the systemic leaves.
Sequences that differ at fixed positions probably stem from PCR or sequencing errors, and defective variants can be carried along by functional ones.
For reference, wild type rose from 33.9 per thousand in the pool to 202, 200, 159 (inoculated region), 724, 746, 710 (leaf margin) and 856, 883, 880 (systemic leaves).
Samples held 43,870 to 66,106 reads, so the smallest values rest on one or two reads.

sequence,pool,IR,LM,Sys
GGAAACCGAAAGGAC,0.320,0.327,0.115,0.0306
GGAAACCGAAUAAGC,0.256,0.181,0.0223,0
GGAAACCGAAUCUUC,0.320,0.192,0.0141,0.00537
GGAAACCGAAUUGGC,0.224,0.129,0,0
GGAAACCGACGAGUC,0.368,0.111,0.0262,0
GGAAACCGACGUUAC,0.192,0.249,0.0885,0.00537
GGAAACCGAGGAGUC,0.352,0.108,0,0
GGAAACCGAGUCCUC,0.304,0.0966,0,0
GGAAACCGAUAAGGC,0.240,0.108,0.0182,0.00537
GGAAACCGAUAUGCC,0.336,0.125,0.00742,0
GGAAACCGAUCGUCC,0.256,0.313,0.152,0.0771
GGAAACCGAUGCGAC,0.240,0.0795,0.00539,0
GGAAACCGAUGUUAC,0.256,0.282,0.101,0.0818
GGAAACCGCACCCAC,0.288,0.0968,0.00668,0.00537
GGAAACCGCAGAGCC,0.224,0.0911,0,0
GGAAACCGCAUGACC,0.0320,0.136,0.0215,0
GGAAACCGCUCGGGC,0.144,0.0909,0.0121,0
GGAAACCGGAAACUC,0.224,0.0892,0,0
GGAAACCGGAACCCC,0.336,0.198,0.0134,0.00537
GGAAACCGGACCUAC,0.384,0.0830,0.0228,0
GGAAACCGGAUUGAC,0.352,0.0730,0,0
GGAAACCGGCCUUGC,0.256,0.0794,0.0121,0
GGAAACCGGCGAUUC,0.272,0.100,0.0262,0
GGAAACCGGCGGAUC,0.224,0.0968,0.00668,0
GGAAACCGGCUAAUC,0.256,0.113,0,0
GGAAACCGGCUGAUC,0.224,0.107,0.0195,0
GGAAACCGGGGUGGC,0.208,0.0963,0.0128,0
GGAAACCGGUACACC,0.224,0.115,0.00742,0
GGAAACCGUAAACGC,0.192,0.111,0.0208,0
GGAAACCGUAAUCAC,0.192,0.325,0.122,0.0708
GGAAACCGUAUCGUC,0.176,0.153,0.00668,0
GGAAACCGUCAAUUC,0.240,0.288,0.106,0.0742
GGAAACCGUGAUGGC,0.176,0.104,0.00742,0.00537
GGAAACCGUGCCGUC,0.352,0.113,0.0410,0
GGAAACCGUUAGGAC,0.112,0.416,0.105,0.0816
GGAAACCGUUCAAGC,0.224,0.0840,0.0241,0.0130
GGAAACCGUUUCAGC,0.224,0.0976,0.00539,0
GGAAACCGUUUCUUC,0.240,0.353,0.116,0.0215

The opening 5 entries, copied out:

GGAAACCGAAAGGAC (pool 0.320) read IR 0.327; LM 0.115; Sys 0.0306.
GGAAACCGAAUAAGC (pool 0.256) read IR 0.181; LM 0.0223; Sys 0.
GGAAACCGAAUCUUC (pool 0.320) read IR 0.192; LM 0.0141; Sys 0.00537.
GGAAACCGAAUUGGC (pool 0.224) read IR 0.129; LM 0; Sys 0.
GGAAACCGACGAGUC (pool 0.368) read IR 0.111; LM 0.0262; Sys 0.